Pooled drug test results. Numbers come from NIAID ChemDB, via PubChem.

Shared fields: growth or infection tests; agent: Candida albicans

A number after MIC or MFC names an inhibition level or a share of isolates.

| SMILES | read by | strain | read-out | setting | value |
|---|---|---|---|---|---|
| COc1ccccc1N1CCN(CCCCN2C(=O)C3C4CCC(OC(C)=O)(CC4=O)C3C2=O)CC1 | broth dilution | DSM 1886 | MIC | - | >100 µM |
| CCCCCCCCCCCCCCCCOP(=O)([O-])OCC[N+](C)(C)C | - | - | MIC50 | - | 2 µg/mL |
| Clc1ccc(CO/N=C(\c2ccccc2)c2cc3ccccc3o2)cc1 | - | - | MIC | - | 16 µg/mL |
| Cc1ccc(NC(=O)c2cc(C)ccc2C)c(O)c1 | - | - | MIC | - | 50 µM |
| CO[C@H]1[C@@H](O)[C@H](n2ccc(=O)[nH]c2=O)O[C@@H]1[C@@H](O[C@H]1OC(C(=O)N[C@H]2CSC[C@@H](C)NC2=O)=C[C@H](O)[C@@H]1O)C(N)=O | - | YU-1200 | MIC | - | >100 µg/mL |
| COc1cc(O)c2c(c1)C(=O)c1c(cc3c(c1O)-c1c(cc(C)c(C(=O)NC(CO)C(=O)O)c1O)[C@H](OC1OC(C)C(O)C(OC4OCC(O)C(O)C4O)C1O)C3O)C2=O | - | ATCC 32354 (B311) | MIC | - | 3.1 µg/mL |
| Cc1ccc(NC(=O)c2ccco2)c(O)c1 | - | - | MIC | - | 25 µM |
| CCC(C)CCCCCCC1CC(=O)NCC(=O)N[C@@H](CCCN)C(=O)N[C@@H](C(C)C)C(=O)N1 | - | IFM 40009 | MIC | - | 2.5 µg/mL |
| O=c1cc(-c2ccccc2)oc2cc(O)cc(O)c12 | - | - | EC50 | - | >50 µg/mL |
| CCNc1nnc(CSc2nnc(-c3ccco3)n2-c2ccc(Br)cc2)s1 | - | ATCC 10231 | MIC | - | 8 µg/mL |
| Nc1[nH]c(=O)ncc1F | - | 2718 | MIC | - | 0.13 µg/mL |
| COc1cc(OC)cc(C(=O)Nc2ccc(C)cc2O)c1 | - | - | MIC | - | 25 µM |
| CC(=O)OC12CCC(C(=O)C1)C1C(=O)N(CCCN3CCN(c4ccccn4)CC3)C(=O)C12 | broth dilution | DSM 1886 | MIC | - | >100 µM |
| CCC(C)CC(C)CCCCCCCCC(=O)N[C@H]1C[C@@H](O)[C@H](NCCN)NC(=O)[C@@H]2[C@@H](O)CCN2C(=O)[C@H]([C@H](O)CCN)NC(=O)[C@H]([C@H](O)[C@@H](O)c2ccc(O)cc2)NC(=O)[C@@H]2C[C@@H](O)CN2C(=O)[C@H]([C@@H](C)O)NC1=O | - | 40 isolates azole-susceptible | MIC50 | - | 0.2 µg/mL |
| O=[N+]([O-])c1ccc(Nc2nnc(CSc3nnc(-c4ccco4)n3-c3ccc(Br)cc3)s2)cc1 | - | ATCC 10231 | MIC | - | >8 µg/mL |
| CCO/N=C(\c1ccc(C)cc1)c1cc2ccccc2o1 | - | - | MIC | - | 4 µg/mL |
| COc1ccc(Br)cc1/C=N/NC(=O)Cc1cc2ccccc2cc1O | MTT | - | MIC | - | >150 µM |
| CCN(CC)CCCC(C)Nc1c2ccc(Cl)cc2nc2ccc(OC)cc12 | broth dilution | SC5314 | MIC50 | biofilm | 125 µg/mL |
| COc1ccc(C(=O)Nc2ccc(C)cc2O)cc1 | - | - | MIC | - | 50 µM |
| N=C(N)c1ccc2nc(-c3ccc(-c4nc5ccc(C(=N)N)cc5[nH]4)[nH]3)[nH]c2c1 | - | Isolate 2281 | MIC | - | 0.78 µg/mL |
| CC(=O)OC12CCC(C(=O)C1)C1C(=O)N(CCCCN3CCN(c4ncccn4)CC3)C(=O)C12 | broth dilution | DSM 1886 | MIC | - | >100 µM |
| COc1ccc(Br)cc1/C=N/NC(=O)Cc1ccccc1F | MTT | - | MIC | - | >150 µM |
| CO/N=C(\c1ccc(OC)cc1)c1cc2ccccc2o1 | - | - | MIC | - | 2 µg/mL |
| Cc1ccc(NC(=O)c2ccc(C(C)(C)C)cc2)c(O)c1 | - | - | MIC | - | 25 µM |
| COC(=O)c1ccc(C[C@H](C(=O)OC)[C@@H](O)C(=O)OC)cc1 | - | ATCC 10231 | MIC | - | 2 µg/mL |
| O=[N+]([O-])c1ccc(C(c2c[nH]cc2-c2ccc(Cl)c(Cl)c2)n2ccnc2)cc1 | - | 40 strains | MIC50 | - | 156 µg/mL |
| CCO/N=C(\c1ccccc1)c1cc2ccccc2o1 | - | - | MIC | - | 4 µg/mL |
| COc1cc(OC)c2c(c1)OC(c1ccccc1)CC2 | - | - | EC50 | - | >50 µg/mL |
| N#Cc1c(-c2ccc(F)cc2)cc(-c2cc3cc(F)ccc3oc2=O)nc1NS(=O)(=O)c1ccccc1 | turbidity | MTCC 227 | MIC | - | 500 µg/mL |
| CCCCNC(=S)NNC(=O)CSc1nnc(-c2ccco2)n1-c1ccc(Br)cc1 | - | ATCC 10231 | MIC | - | 8 µg/mL |
| O/N=C(\c1ccccc1)c1cc2ccccc2o1 | - | - | MIC | - | 0.5 µg/mL |
| C[C@H]1[C@H](O)[C@@H](C)/C=C/C=C/C=C/C=C/C=C/C=C/C=C/[C@H](O[C@@H]2O[C@H](C)[C@@H](O)[C@H](N)[C@@H]2O)C[C@@H]2O[C@](O)(C[C@@H](O)C[C@@H](O)CC[C@H](O)[C@@H](O)C[C@@H](O)CC(=O)O[C@H]1C)C[C@H](O)[C@H]2C(=O)O | - | 50 isolates | MIC50 | - | 0.1 µg/mL |
| O=C(O/N=C(\c1ccc(Cl)cc1)c1cc2ccccc2o1)c1ccccc1 | - | - | MIC | - | 16 µg/mL |
| N#Cc1c(-c2ccc(Cl)cc2)cc(-c2cc3cc(F)ccc3oc2=O)nc1NS(=O)(=O)c1ccccc1 | turbidity | MTCC 227 | MIC | - | 1000 µg/mL |
| NC(=O)[C@H](O[C@H]1OC(C(=O)O)=C[C@H](O)[C@@H]1O)[C@H]1O[C@@H](n2ccc(=O)[nH]c2=O)[C@H](O)[C@@H]1O | - | YU-1200 | MIC | - | >100 µg/mL |
| O=C(CSc1nnc(-c2ccco2)n1-c1ccc(Br)cc1)NNC(=S)Nc1ccc(F)cc1 | - | ATCC 10231 | MIC | - | 8 µg/mL |
| O=C(Cc1ccc(Br)cc1)Nc1ccc([N+](=O)[O-])cc1O | - | - | MIC | - | 100 µM |
| CCC(C)n1ncn(-c2ccc(N3CCN(c4ccc(OC[C@H]5CO[C@](Cn6cncn6)(c6ccc(Cl)cc6Cl)O5)cc4)CC3)cc2)c1=O | - | ATCC 10231 | MIC | - | >0.015 µg/mL |
| COc1cc(O)c(C(=O)CCc2ccccc2)c(OC)c1 | - | - | EC50 | - | >50 µg/mL |
| Cc1ccc(NC(=O)Cc2ccc(Br)cc2)c(O)c1 | - | - | MIC | - | 12.5 µM |
| C=CCNC(=S)NNC(=O)CSc1nnc(-c2ccco2)n1-c1ccc(Br)cc1 | - | ATCC 10231 | MIC | - | 8 µg/mL |
| CCC(C)CCCCCCCCC1CC(=O)NCC(=O)N[C@@H](CCCN)C(=O)N[C@@H](C(C)C)C(=O)N1 | - | ATCC 10231 | MIC | - | 2.5 µg/mL |
| Clc1ccc(C(c2c[nH]cc2-c2ccccc2)n2ccnc2)cc1 | - | 40 strains | MIC50 | - | 8 µg/mL |
| COc1cccc(-c2cc(-c3cc4cc(F)ccc4oc3=O)nc(NS(=O)(=O)c3ccccc3)c2C#N)c1 | turbidity | MTCC 227 | MIC | - | 1000 µg/mL |
| Clc1ccc(/C(=N\OCc2ccccc2)c2cc3ccccc3o2)cc1 | - | - | MIC | - | 32 µg/mL |

Blank or dashed fields: not listed here. ECn is the concentration giving n% inhibition of infection, replication or growth. Conditions beyond the fields shown may differ between rows.